PubChem BioAssay AID624099 | ICCB-Longwood, 2012
Screen: 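Human genes that papillomavirus E2 requires to repress the HPV18 LCR promoter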 (primary screen). Cells: human C33A cervical carcinoma cells (HPV-negative) stably expressing BPV1 E2 and an HPV18 LCR luciferase reporter. Knock-down reagent: siRNA pool against human genes, 40 nM. Duration: 72 h. Measured: 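Per-well luciferase luminescence, z-scored on each plate against the plate mean and SD with control wells left out, then averaged across three replicate plates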. Direction: mean z-score and z-score: higher = stronger reporter signal, weaker E2 silencing. Rule for the call: 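Mean z ≥ 2 together with z ≥ 2 in two or more of the three replicates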.
Here is a random part of about 21,000 reagents. Over the whole deposit, 497 (2.4%) are marked active. 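Higher z means weaker E2 silencing; only reporter increases were scored, and knock-downs that hurt cell survival may mask genuine repressor factors.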 The numbers tell different reagents against one gene apart. No sequences are given here.

| target | reagent no. | mean z-score | z-score, replicate A | z-score, replicate B | z-score, replicate C | outcome |
| --- | --- | --- | --- | --- | --- | --- |
| CLCF1 | 1 | -0.66 | -0.6 | -0.6 | -0.79 | inactive |
| IER3 | 1 | 0.94 | 0.59 | 1.11 | 1.12 | inactive |
| EMILIN3 | 1 | 1.08 | 0.8 | 1.33 | 1.1 | inactive |
| PDE10A | 1 | -1.02 | -0.87 | -0.99 | -1.19 | inactive |
| PLEKHG4B | 1 | 0.15 | 0.16 | 0.34 | -0.06 | inactive |
| ZSCAN29 | 1 | -1.35 | -1.4 | -1.57 | -1.07 | inactive |
| IGFL3 | 1 | -1.41 | -1.62 | -1.46 | -1.15 | inactive |
| PBX2 | 1 | 0.41 | 0.3 | 0.56 | 0.36 | inactive |
| SAXO5 | 1 | -0.28 | -0.03 | -0.6 | -0.2 | inactive |
| GPATCH11P1 | 1 | 0.49 | 0.47 | 0.66 | 0.33 | inactive |
| TMEM134 | 1 | 1.01 | 1.61 | 0.5 | 0.92 | inactive |
| ARFRP1 | 1 | 0.89 | 0.85 | 1.03 | 0.79 | inactive |
| MTOR | 1 | -1.52 | -1.37 | -1.76 | -1.42 | inactive |
| CDK2 | 1 | -0.65 | -1 | -0.57 | -0.36 | inactive |
| LOC391705 (retired record) | 1 | -0.45 | -0.13 | -0.82 | -0.4 | inactive |
| TMED1 | 1 | -0.64 | -0.66 | -0.65 | -0.61 | inactive |
| AP3S1 | 1 | 0.19 | -0.13 | 0.24 | 0.47 | inactive |
| DRG1 | 1 | 1.38 | 1.51 | 1.35 | 1.27 | inactive |
| LINC00632 | 1 | 1.46 | 1.17 | 1.52 | 1.69 | inactive |
| LMOD1 | 1 | -0.2 | 0 | -0.07 | -0.53 | inactive |
| S100A7 | 1 | 0.79 | 0.53 | 0.7 | 1.12 | inactive |
| COL6A2 | 1 | -0.62 | -0.58 | -0.47 | -0.81 | inactive |
| AGAP2 | 1 | -0.53 | -0.5 | -0.63 | -0.47 | inactive |
| METTL2B | 1 | -1.46 | -1.6 | -1.38 | -1.39 | inactive |
| TBC1D30 | 1 | 0.47 | 0.72 | 0.5 | 0.21 | inactive |
| EIF1AY | 1 | 0.21 | -0.4 | 0.43 | 0.61 | inactive |
| NPPA | 1 | 0.62 | 0.75 | 0.74 | 0.38 | inactive |
| STRAP | 1 | -1.91 | -1.88 | -2.17 | -1.67 | inactive |
| STYX | 1 | 1.06 | 1.11 | 0.76 | 1.32 | inactive |
| PDZRN3 | 1 | 0.67 | 0.71 | 0.75 | 0.54 | inactive |
| SUOX | 1 | 0.31 | 0.19 | 0.51 | 0.22 | inactive |
| PODN | 1 | 0.78 | 0.99 | 0.74 | 0.6 | inactive |
| OR51M1 | 1 | -0.85 | -0.75 | -0.66 | -1.16 | inactive |
| TTC8 | 1 | 0.7 | 0.74 | 1.11 | 0.25 | inactive |
| BANK1 | 1 | -0.76 | -0.72 | -0.64 | -0.92 | inactive |
| POU4F3 | 1 | -0.2 | -0.18 | -0.29 | -0.12 | inactive |
| LRRC37A4P | 1 | 0.79 | 1.42 | 0.69 | 0.25 | inactive |

Continued; the last 4 above are carried over.
| target | reagent no. | mean z-score | z-score, replicate A | z-score, replicate B | z-score, replicate C | outcome |
| --- | --- | --- | --- | --- | --- | --- |
| TTC8 | 1 | 0.7 | 0.74 | 1.11 | 0.25 | inactive |
| BANK1 | 1 | -0.76 | -0.72 | -0.64 | -0.92 | inactive |
| POU4F3 | 1 | -0.2 | -0.18 | -0.29 | -0.12 | inactive |
| LRRC37A4P | 1 | 0.79 | 1.42 | 0.69 | 0.25 | inactive |
| GPANK1 | 1 | 0.23 | 0.31 | 0.45 | -0.07 | inactive |
| BTBD1 | 1 | 1.83 | 1.82 | 1.79 | 1.87 | inactive |
| SPATA31A6 | 1 | 1.48 | 1.21 | 1.66 | 1.57 | inactive |
| LYN | 1 | -1.78 | -1.76 | -2 | -1.58 | inactive |
| ZNF710 | 1 | -0.51 | 0.16 | -0.84 | -0.86 | inactive |
| CDV3 | 1 | 1.17 | 1 | 1.04 | 1.46 | inactive |
| KIR3DL3 | 1 | -0.41 | -0.35 | -0.45 | -0.43 | inactive |
| SDHAF4 | 1 | 2.67 | 2.75 | 2.45 | 2.81 | active |
| MOGAT1 | 1 | 0.19 | -0.15 | 0.05 | 0.69 | inactive |
| MROH1 | 1 | -2.32 | -2.41 | -2.2 | -2.36 | inactive |
| MROH1 | 2 | 0.3 | 0.34 | 0.3 | 0.27 | inactive |
| CCNE2 | 1 | -0.11 | -0.12 | -0.01 | -0.19 | inactive |
| NENF | 1 | 3.39 | 3.56 | 3.72 | 2.9 | active |
| ZNF271P | 1 | 0.02 | 0.1 | 0.07 | -0.1 | inactive |
| ZNF846 | 1 | 1.37 | 1.19 | 1.57 | 1.34 | inactive |
| MYOZ2 | 1 | 0.98 | 1.17 | 1.2 | 0.56 | inactive |
| CCDC30 | 1 | 0.39 | 0.8 | 0.02 | 0.34 | inactive |
| GPR165P | 1 | 0.9 | 1.39 | 0.5 | 0.8 | inactive |
| ATF5 | 1 | 0.14 | 0.12 | 0.08 | 0.22 | inactive |
| IL6R | 1 | -0.22 | -0.12 | -0.41 | -0.12 | inactive |
